Assay results: PubChem BioAssay AID588335 (The Scripps Research Institute Molecular Screening Center, 2011)
This is a selection; strong and weak results do not stand in their true shares. Active and inactive are the calls of the source. Rule as the data show it: active = inhibition above about 30%; inactive = the rest.

Experiment: inhibition of GDH and TPI enzymes – biochemical, absorbance, full deck, artefact control for M. tuberculosis FBA inhibitor project, primary screen (AID 588335);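 also: 0% = DMSO wells and 100% = wells lacking the enzyme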
Conditions: GDH-TPI coupled enzyme counterscreen, NADH absorbance; at 4.8 µM; stronger effect = higher value

| Structure (SMILES) | inhibition |
| --- | --- |
| CP(=O)(Nc1ccc(SC(F)(F)F)cc1)Oc1ccccc1 (configuration not stated) | inactive: -0.74% |
| CCCOc1ccc(NP(C)(=O)Oc2ccc(Cl)cc2)cc1 (configuration not stated) | inactive: -0.32% |
| CN1CCCCC1COC(=O)C1(O)c2ccccc2CCc2ccccc21 (configuration not stated) | inactive: 11.1% |
| COc1ccccc1OP(C)(=O)Nc1c(C)cccc1C (configuration not stated) | inactive: -1.24% |
| CCOC(=O)C(CC)C1=NC(C)(C)Cc2ccccc21.O=[N+]([O-])c1cc([N+](=O)[O-])c(O)c([N+](=O)[O-])c1 (configuration not stated) | active: 44.4% |
| O=[N+]([O-])c1cc([N+](=O)[O-])c(Nc2nnnn2CCO)c([N+](=O)[O-])c1 | inactive: 6.67% |
| CC1=C2N=C(C=C3N=C(C(C)=C4[N-][C@@](C)([C@@H]5N=C1[C@](C)(CCC(=O)NC[C@@H](C)OP(=O)([O-])O[C@H]1[C@@H](O)[C@@H](n6cnc7cc(C)c(C)cc76)O[C@@H]1CO)[C@H]5CC(N)=O)[C@@](C)(CC(N)=O)[C@@H]4CCC(N)=O)[C@@](C)(CC(N)=O)[C@@H]3CCC(N)=O)C(C)(C)[C@@H]2CCC(N)=O.[C-]#N.[Co+3] | inactive: 22.3% |
| Cc1nc2ccc3ccccc3c2s1.O=[N+]([O-])c1cc([N+](=O)[O-])c(O)c([N+](=O)[O-])c1 | active: 30.7% |
| O=[N+]([O-])c1cc([N+](=O)[O-])c(-c2cnn(-c3ccccc3)c2)c([N+](=O)[O-])c1 | inactive: -6.13% |
| O=[N+]([O-])c1cc([N+](=O)[O-])c(-n2nnc3ccccc32)c([N+](=O)[O-])c1 | inactive: 6.83% |
| CP(=O)(Nc1cccc(Br)c1)Oc1ccccc1 (configuration not stated) | inactive: -7.62% |
| Cc1cc(C)cc(OP(C)(=O)Nc2ccccn2)c1 (configuration not stated) | inactive: 1.75% |
| Cc1ccc(C)c(NP(C)(=O)Oc2ccccc2)c1 (configuration not stated) | inactive: 11.2% |
| Cc1cc(C)cc(OP(C)(=O)Nc2ccc(C)cc2C)c1 (configuration not stated) | inactive: -5.65% |
| CCOC(=O)c1ccc(NP(C)(=O)Oc2cc(C)cc(C)c2)cc1 (configuration not stated) | inactive: -3.58% |
| COc1ccccc1OP(C)(=O)Nc1cccc(Br)c1 (configuration not stated) | inactive: -1.25% |
| CC1=NCCc2c1[nH]c1ccccc21.O=[N+]([O-])c1cc([N+](=O)[O-])c(O)c([N+](=O)[O-])c1 | inactive: 17.3% |
| O=C(O)c1cccc(Nc2c([N+](=O)[O-])cc([N+](=O)[O-])cc2[N+](=O)[O-])c1 | active: 35.1% |
| COc1ccc(OP(C)(=O)Nc2cccc(F)c2)cc1 (configuration not stated) | inactive: -1.24% |

| Structure (SMILES) | inhibition |
| --- | --- |
| COc1ccccc1OP(C)(=O)Nc1cc(Cl)ccc1C (configuration not stated) | inactive: 11% |
| Cc1cc(C)cc(OP(C)(N)=O)c1 (configuration not stated) | inactive: 12.2% |
| CCOC(=O)c1ccc(NP(C)(=O)Oc2ccccc2)cc1 (configuration not stated) | inactive: 8.82% |
| Cc1ccc(NP(C)(=O)Oc2ccccc2)c(C)c1 (configuration not stated) | inactive: -3.8% |
| COc1ccccc1OP(C)(=O)Nc1ccc(C)cc1 (configuration not stated) | inactive: 6.38% |
| Cc1cccc(C)c1OP(C)(N)=O (configuration not stated) | inactive: 1.55% |
| CC(C)(C)c1ccc(OP(C)(=O)Nc2ccc(SC(F)(F)F)cc2)cc1 (configuration not stated) | inactive: 7.89% |
| O=[N+]([O-])c1ccc2c(c1)C=Nc1ccccc1O2 | inactive: 16.9% |
| O=[N+]([O-])c1cc([N+](=O)[O-])c(Nc2cccnc2)c([N+](=O)[O-])c1 | inactive: 20.5% |
| CCN(CC)CCCOC(=O)C(O)(c1ccccc1)c1ccccc1 | inactive: 2.84% |
| CP(=O)(Nc1ccccn1)Oc1ccc(Cl)cc1 (configuration not stated) | inactive: -0.35% |
| CCOP(C)(=S)SCC(=O)NC(C)C(=O)O (configuration not stated) | inactive: 8.4% |
| O=[N+]([O-])c1cc([N+](=O)[O-])c(O)c([N+](=O)[O-])c1.c1ccc(Oc2ccncc2)cc1 | inactive: 12.3% |
| CCOC(=O)c1ccc(NP(C)(=O)Oc2ccc(OC)cc2)cc1 (configuration not stated) | inactive: -7.04% |
| Cc1cc(C)cc(OP(C)(=O)Nc2ccc(SC(F)(F)F)cc2)c1 (configuration not stated) | inactive: 2.56% |
| CCc1ccc(OP(C)(=O)N2CCN(c3ccc([N+](=O)[O-])cc3)CC2)cc1 (configuration not stated) | inactive: 5.36% |
| CP(=O)(NC(=O)Nc1ccccc1)Oc1ccccc1 (configuration not stated) | inactive: 6.56% |
| CP(=O)(Oc1ccccc1)OC(c1ccccc1)C(F)(F)F (configuration not stated) | inactive: 0.63% |
| CP(=O)(Nc1ccc(SC(F)(F)F)cc1)Oc1ccc(Cl)cc1 (configuration not stated) | inactive: -5.9% |

| Structure (SMILES) | inhibition |
| --- | --- |
| Cc1cccc(C)c1OP(C)(=O)Nc1ccc(SC(F)(F)F)cc1 (configuration not stated) | inactive: 2.95% |
| Cc1ccc(Nc2c([N+](=O)[O-])cc([N+](=O)[O-])cc2[N+](=O)[O-])cc1 | inactive: 23% |
| COc1ccccc1OP(C)(=O)Nc1ccccc1 (configuration not stated) | inactive: -1.6% |
| CP(=O)(Nc1ccccc1Br)Oc1ccccc1 (configuration not stated) | inactive: -1.81% |
| CP(=S)(Nn1cnnc1)Oc1ccccc1 (configuration not stated) | inactive: 5.04% |
| CP(=O)(OC12CC3CC(CC(C3)C1)C2)OC12CC3CC(CC(C3)C1)C2 | inactive: -11.8% |
| CCOC(=O)c1ccc(NP(C)(=O)Oc2ccc(Cl)cc2)cc1 (configuration not stated) | inactive: -1.45% |
| CN(C)C(=O)c1c([N+](=O)[O-])cc([N+](=O)[O-])cc1[N+](=O)[O-] | inactive: 4.79% |
| CP(=O)(Nc1ccc(Cl)cc1)Oc1ccc(F)cc1 (configuration not stated) | inactive: 2.12% |
| CC(C)(C)c1ccc(OP(C)(=O)O)cc1 | inactive: 1.24% |
| COc1ccccc1OP(C)(=O)Nc1ccccc1Br (configuration not stated) | inactive: -1.89% |
| CCc1ccc(OP(C)(=O)Nc2cccnc2)cc1 (configuration not stated) | inactive: 15.8% |
| CP(=O)(Oc1ccccc1)N1CCOC1=O (configuration not stated) | inactive: 4.12% |
| O=C(OCCCN1CCCC1)C(O)(c1ccccc1)C1CCCCC1 (configuration not stated) | inactive: -0.68% |
| COc1ccccc1OP(C)(=O)Nc1c(C)n(C)n(-c2ccccc2)c1=O (configuration not stated) | inactive: 0% |
| COc1ccc(OP(C)(=O)Nc2ccc(Br)cc2)cc1 (configuration not stated) | inactive: 10.5% |
| CCN(CC)CC(O)COC(=O)C(O)(c1ccccc1)C1CCCCC1 (configuration not stated) | inactive: -0.47% |
| CCc1ccc(OP(C)(=O)O)cc1 | inactive: 4.13% |
| COc1ccccc1OP(C)(=O)Nc1ccc(C)cc1C (configuration not stated) | inactive: 11.6% |
